Anti-infective test results gathered from many reports (values: NIAID ChemDB through PubChem).

Common to all: tests in culture; organism: HIV-1; method: cytopathic effect; read-out: fold resistance

Fold resistance has wild type as its base. Conditions beyond the fields shown may differ between rows.

Cc1cc(C)nc(N2C(=O)CSC2c2c(Cl)cccc2Cl)n1 ; cells: CEM ; changes: RT-K103N ; result: 676
Cc1ccnc2c1NC(=O)c1cccnc1N2C1CC1 ; cells: MT-4 ; changes: RT A62V 69SS K70R E79K V118I M184V E203K L210W T215Y ; strain or isolate: NL4-3 ; result: 0.167
Cc1ccnc2c1NC(=O)c1cccnc1N2C1CC1 ; cells: CEM ; changes: RT-L100V K103R/K Y188H ; strain or isolate: B-1 (RT L100V K103R/K Y188H) ; result: 8
Cc1cn([C@H]2C=C[C@@H](CO)O2)c(=O)[nH]c1=O ; cells: MT-2 ; changes: RT-L100I ; strain or isolate: R82150 (RT-L100I) ; result: 0.818
Cc1cn([C@@H]2O[C@H](CO[Si](C)(C)C(C)(C)C)C3(OS(=O)(=O)C=C3N)[C@H]2O[Si](C)(C)C(C)(C)C)c(=O)n(C)c1=O ; cells: CEM ; changes: RT-K103N ; strain or isolate: NNRTI-resistant ; result: 10.36
CC(C)=CCOc1cc(NC(=S)c2ccoc2C)ccc1Cl ; cells: MT-4 ; changes: RT-P225H ; strain or isolate: Recombinant ; result: 3.7
Cc1occc1C(=S)Nc1ccc(Cl)c(/C=N/OC(C)(C)C)c1 ; cells: CEM ; changes: RT-V179D ; strain or isolate: IIIB ; result: 10.63
CCOCn1c(Cc2ccccc2)c(C(C)C)c(=O)[nH]c1=O ; cells: MT-4 ; changes: RT-V106A P225H ; strain or isolate: Recombinant ; result: 195
Cc1cn([C@@H]2O[C@H](CO[Si](C)(C)C(C)(C)C)C3(OS(=O)(=O)C=C3N)[C@H]2O[Si](C)(C)C(C)(C)C)c(=O)n(C)c1=O ; cells: CEM ; changes: RT-L100I ; strain or isolate: IIIB ; result: 2.73
Cc1ccnc2c1NC(=O)c1cccnc1N2C1CC1 ; cells: CEM ; changes: RT-E138K ; result: 1
COc1ccc2c(c1)N(C(=O)OC(C)C)[C@@H](CSC)C(=S)N2 ; cells: MT-4 ; changes: RT-V106A P225H ; strain or isolate: Recombinant ; result: 140
Nc1ccn([C@H]2CC[C@@H](CO)O2)c(=O)n1 ; cells: MT-4 ; changes: RT-F77L F116Y Q151M ; strain or isolate: FO-08.96 (HXB2 RT F77L F116Y Q151M) ; result: >23.4
Fc1cccc(F)c1C1SCc2nc3ccccc3n21 ; cells: CEM ; changes: RT-Y188H ; result: 2.99
CC(C)Nc1cccnc1N1CCN(C(=O)c2cc3cc(NS(C)(=O)=O)ccc3[nH]2)CC1 ; cells: MT-4 ; changes: RT-T69N K70R Q151M ; strain or isolate: NI-10.93 (HXB2 RT T69N K70R Q151M) ; result: 2
Cc1ccnc(N2C(=O)CSC2c2c(Cl)cccc2Cl)n1 ; cells: CEM ; changes: RT-E138K ; result: 1.56
CC[C@H]1C(=O)Nc2ccc(F)cc2N1C(=O)OC(C)C ; cells: CEM ; changes: RT-V106A ; strain or isolate: NNRTI-resistant ; result: 35.7
Cc1cn([C@H]2C=C[C@@H](CO)O2)c(=O)[nH]c1=O ; cells: MT-4 ; changes: RT-T69N L74I Q151M M184V ; strain or isolate: LZ-07.96 (HXB2 RT T69N L74I Q151M M184V) ; result: 19.08
C=C(C)OC(=O)N1c2cc(Cl)ccc2NC(=S)C1(C)C ; cells: MT-4 ; changes: RT-P225H ; strain or isolate: Recombinant ; result: 4
Fc1cccc(F)c1C1SCc2nc3ccccc3n21 ; cells: CEM ; changes: RT-K103N ; result: 11.2
CCCCCCCSc1nsc(NC(=O)Nc2ccccc2)n1 ; cells: MT-4 ; changes: AMD3100-resistant ; strain or isolate: NL4-3 ; result: 1.3
CC(C)=CCN1Cc2cccc3[nH]c(=S)n(c23)C[C@@H]1C ; cells: MT-2 ; changes: RT-R83K ; strain or isolate: IIIB ; result: 0.9375
Cc1cn([C@H]2C[C@H](N=[N+]=[N-])[C@@H](CO)O2)c(=O)[nH]c1=O ; cells: CEM ; changes: RT-Y188H ; result: 0.57
CC(C)=CCN1Cc2cc(Cl)cc3[nH]c(=S)n(c23)C[C@@H]1C ; cells: CEM ; changes: RT-E138K ; strain or isolate: IIIB ; result: 18.75
COc1cc(C)nc(N2C(=O)CSC2c2c(Cl)cccc2Cl)n1 ; cells: CEM ; changes: RT-E138K ; result: 1.7
CC(C)=CCOc1cc(NC(=S)c2ccsc2C)ccc1Cl ; cells: CEM ; changes: RT-V106A ; strain or isolate: IIIB ; result: 1.67
Cc1ccnc2c1NC(=O)c1cccnc1N2C1CC1 ; cells: MT-2 ; changes: RT-L100I ; strain or isolate: R82150 (RT-L100I) ; result: 10
Cc1cn([C@H]2C[C@H](N=[N+]=[N-])[C@@H](CO)O2)c(=O)[nH]c1=O ; cells: MT-4 ; changes: RT A62V 69SS K70R E79K V118I M184V E203K L210W T215Y ; strain or isolate: NL4-3 ; result: >1500
Cc1cn([C@H]2C[C@H](N=[N+]=[N-])[C@@H](CO)O2)c(=O)[nH]c1=O ; cells: CEM ; changes: RT-K103N ; strain or isolate: Y-1 (RT-K103N) ; result: 57
Cc1cn([C@H]2C[C@H](N=[N+]=[N-])[C@@H](CO)O2)c(=O)[nH]c1=O ; cells: MT-2 ; changes: RT-L100I ; strain or isolate: R82150 (RT-L100I) ; result: 0.857

The last 4 rows once more:

Cc1ccnc2c1NC(=O)c1cccnc1N2C1CC1 ; cells: MT-2 ; changes: RT-L100I ; strain or isolate: R82150 (RT-L100I) ; result: 10
Cc1cn([C@H]2C[C@H](N=[N+]=[N-])[C@@H](CO)O2)c(=O)[nH]c1=O ; cells: MT-4 ; changes: RT A62V 69SS K70R E79K V118I M184V E203K L210W T215Y ; strain or isolate: NL4-3 ; result: >1500
Cc1cn([C@H]2C[C@H](N=[N+]=[N-])[C@@H](CO)O2)c(=O)[nH]c1=O ; cells: CEM ; changes: RT-K103N ; strain or isolate: Y-1 (RT-K103N) ; result: 57
Cc1cn([C@H]2C[C@H](N=[N+]=[N-])[C@@H](CO)O2)c(=O)[nH]c1=O ; cells: MT-2 ; changes: RT-L100I ; strain or isolate: R82150 (RT-L100I) ; result: 0.857